Values of other authors as cited in publication PMC12800406.

Biological target: SARS-CoV-2 spike target of the cited XN-268s work (exact construct not stated) (SARS-CoV-2?) (UniProt P0DTC2)
Details: BLI ([…], pH 7.4, 0.2% BSA, 0.05% Tween 20, 25 C; cited from earlier work

For “CACGCATAACCGAGCTGGGGTGGGGTAGTGGTATGGAGCGTCAGTTGTTATGCGTG [XN-268s]”, the pKd is given as 8.37.

pKd: −log10 of the molar value.
